Compound potency records, mixed from different reports. Data source: NIAID ChemDB in PubChem.

All rows: growth or infection tests; agent: Plasmodium falciparum; endpoint: EC50

Lines come from different laboratories, so protocols vary. Blank or dashed fields: not listed here. ECn is the concentration giving n% inhibition of infection, replication or growth.

SMILES	cell line	strain	mutations	read by	result
Clc1cccc(CC[C@H]2C[C@H]3CCC[C@H]4C[C@@H](CCc5cccc(Cl)c5)NC(=N2)N34)c1		D6		LDH	1.25 µM
CC(C)OC(C)C	Human dermal fibroblasts	D10		MTT	8.8 µg/mL
COc1cc(OC)c(OC)cc1/C=C/C=C/C(=O)c1ccc(Cl)c(Cl)c1		3D7		SYBR Green / fluorescence	50 µM
CCN(CC)CCCC(C)Nc1ccnc2cc(Cl)ccc12	Human dermal fibroblasts	D10		MTT	0.009 µg/mL
C#CCCC1CC2CCC3CC(C)NC(=N1)N23		W2		LDH	20.6 µM
O=C(/C=C/C=C/c1ccc2c(c1)OCO2)c1ccc(Cl)c(Cl)c1		Dd2		SYBR Green / fluorescence	100 µM
CCCCCC[C@]12Cc3cc(OC)c(OC)cc3[C@@H](O1)c1c(c3ccccc3n(C)c1=O)O2		CP250		SYBR Green / fluorescence	6 µM
Cc1[nH]nc2c1C(c1cc(Cl)cc(-c3ccc(-c4nn[nH]n4)cc3)c1)(C1CCC1)C(C#N)=C(N)O2		NF54		radiometric	2.14 µM
C=CCCC1CC2CCCC3CC(C)NC(=N1)N23		D6		LDH	19.27 µM
CCOC(=O)C1=C(C(=O)OCC)C2N(Cc3ccccc3C(F)(F)F)c3ccccc3[C@@]23C[C@@H](C(=O)OC)N(S(=O)(=O)c2c(C)noc2C)C3=N1		7G8 GB4		SYBR Green / fluorescence	0.7 µM
CC(C)C1(c2cc(C#N)cc(C#N)c2)C(C#N)=C(N)Oc2[nH]ncc21		NF54		radiometric	0.49 µM
O=C(/C=C/C=C/c1ccc2c(c1)OCO2)c1ccc(Br)cc1		3D7		SYBR Green / fluorescence	50 µM
CC(C)=CCC[C@@H]1C[C@@H]2CC[C@@H]3C[C@H](CCC=C(C)C)NC(=N1)N32		D6		LDH	7.29 µM
C[C@H]1CCc2c([nH]c3ccccc23)[C@@]2(N1)C(=O)Nc1ccc(Cl)cc12		GNF-Pf4492R-2	GNF-Pf4492-resistant I203L/P990R	SYBR Green / fluorescence	0.149 µM
COC(=O)C1=C(C(=O)OC)C2N(Cc3ccccc3)c3ccccc3[C@@]23C[C@@H](C(=O)OC)N(S(=O)(=O)c2ccc(Br)cc2)C3=N1		CP250		SYBR Green / fluorescence	2.3 µM
CCCCCCCCCCCCc1cccc(C2(O)NC(=O)c3cnccc32)c1				broth dilution / radiometric	>2500 µM
Cc1[nH]nc2c1C(c1cc(C#N)cc(-c3ccc(C(=O)O)s3)c1)(C(C)C)C(C#N)=C(N)O2		NF54		radiometric	0.7 µM
COc1ccc(C2=C(O)c3ccccc3C(=O)C2=O)cc1	Erythrocytes	3D7		flow cytometry	16 µM
COC(=O)C1=C(C)N(Cc2ccc(C(F)(F)F)cc2)C(=NCc2cccc(C(F)(F)F)c2)NC1c1ccccc1		7G8		SYBR Green / fluorescence	5.4 µM
COc1cc(OC)c(OC)cc1/C=C/C=C/C(=O)c1ccc(Cl)cc1		3D7		SYBR Green / fluorescence	22.5 µM
O=C1C(=O)c2ccccc2C(O)=C1C1CCC(c2ccc(Cl)cc2)CC1	RBC	W2		flow cytometry	0.0012 µM
CCn1c2c(c3ccccc31)C(=O)c1ccc3ccccc3c1C2=O		FRC-3		broth dilution	0.22 µM
COC(=O)c1ccc(-c2cc(C#N)cc(C3(C4(F)COC4)C(C#N)=C(N)Oc4n[nH]c(C)c43)c2)s1		NF54		radiometric	0.22 µM
COc1ccc(/C=C/C=C/C(=O)c2ccc(Cl)cc2)cc1		3D7		SYBR Green / fluorescence	88 µM
CC1CC2CCC3CC(CCc4cccc(Cl)c4)N=C(N1)N32		W2		LDH	7.25 µM
Cn1nc(C(F)(F)F)c(-c2ccc(Br)cc2)c1NC(=O)Nc1ccc(F)cc1F		Dd2 (CM1)	Multidrug-resistant	SYBR Green / fluorescence	0.151 µM
CCN1C(=NCc2cccc(Cl)c2)N[C@@H](c2cccc(C(F)(F)F)c2)C(C(=O)OC)=C1C		GB4		SYBR Green / fluorescence	2.8 µM
Cc1[nH]nc2c1C(c1cc(C#N)cc(-c3ccc(C(=O)N(C)C)s3)c1)(C(C)C)C(C#N)=C(N)O2		V1/S		radiometric	0.092 µM
CCN(CC)CCCC(C)Nc1ccnc2cc(Cl)ccc12	human red blood cells	3D7		LDH / absorbance	0.05 µM
COc1cc2c(NC3CCN(C)CC3)nc(N3CCCN(C)CC3)nc2cc1OCc1ccccc1		W2		fluorescence	0.116 µM
CCCCOC(=O)CC[C@H](NC(=O)c1ccc(-c2cc(C#N)cc(C3(C(C)C)C(C#N)=C(N)Oc4n[nH]c(C)c43)c2)s1)C(=O)OCCCC		NF54		radiometric	2.08 µM
CC1CC2CCC3CC(CCc4ccccc4)N=C(N1)N32		W2		LDH	9.93 µM
Cc1c(-c2ccc(-c3ccc(OC(C)(C)C)cc3)nc2)[nH]c2cc(F)ccc2c1=O		TM902CB		SYBR Green	0.183 µM
C=C[C@]1(C)C[C@H](OC(=O)C(=C)CO)[C@H]2C(=C)C(=C)C[C@@H]2C1C(=C)CO	Red blood cells	Dd2		SYBR Green	0.569 µg/mL
Cc1cccc(CC[C@H]2C[C@H]3CC[C@H]4C[C@@H](CCc5cccc(C)c5)NC(=N2)N34)c1		W2		LDH	4.98 µM
CCN(CC)CCCNC(=O)c1ccc(-c2cc(C#N)cc(C3(C(C)C)C(C#N)=C(N)Oc4n[nH]c(C)c43)c2)s1		K1		radiometric	1.64 µM
C[C@H]1Cc2c([nH]c3cc(Cl)c(F)cc23)[C@@]2(N1)C(=O)Nc1ccc(Cl)cc12		GNF-Pf4492R-2	GNF-Pf4492-resistant I203L/P990R	SYBR Green / fluorescence	0.00285 µM
C=C1C[C@@H]2/C=C(\CO)CC/C=C(\C)C[C@H](OC(=O)C(=C)CO)[C@H]2C1=C	Red blood cells	Dd2		SYBR Green	0.807 µg/mL
CCN(CC)CCCC(C)NC(=O)c1ccc(-c2cc(C#N)cc(C3(C(C)C)C(C#N)=C(N)Oc4n[nH]c(C)c43)c2)s1		NF54		radiometric	2.51 µM
CCC1OC(O)(C(C)(O)C(=O)N[C@@H]2C(=O)N3NCCC[C@@H]3C(=O)N(O)[C@@H](COC)C(=O)N3NCC(OC4CC(OC)C(OC5CC(OC)C(O)C(C)O5)C(C)O4)=CC3C(=O)N3CC[C@@H](O)[C@H]3C(=O)N(O)[C@@H](CC)C(=O)O[C@H]2C(C)C)CCC1C(=O)C(C)(O)CC		3D7		absorbance	0.009 µM
COc1ccc(/C=C/C=C/C(=O)c2ccc(OC)cc2)cc1		INDO		SYBR Green / fluorescence	25 µM
CC(C)CCC[C@@H]1C[C@@H]2CC[C@@H]3C[C@H](CCCC(C)C)NC(=N1)N32		D6		LDH	1.98 µM
CCN1C(=NCc2cccc(Cl)c2)N[C@H](c2cccc(C(F)(F)F)c2)C(C(=O)OC)=C1C		GB4		SYBR Green / fluorescence	0.2 µM
Cc1[nH]nc2c1C(c1cc(C#N)cc(N3CCOCC3)c1)(C1CCC1)C(C#N)=C(N)O2		NF54		radiometric	>2.4 µM

7 of the rows above, restated:

SMILES,cell line,strain,mutations,read by,result
CCOC(=O)C1=C(C(=O)OCC)C2N(Cc3ccccc3C(F)(F)F)c3ccccc3[C@@]23C[C@@H](C(=O)OC)N(S(=O)(=O)c2c(C)noc2C)C3=N1,,7G8 GB4,,SYBR Green / fluorescence,0.7 µM
O=C(/C=C/C=C/c1ccc2c(c1)OCO2)c1ccc(Cl)c(Cl)c1,,Dd2,,SYBR Green / fluorescence,100 µM
CCCCCCCCCCCCc1cccc(C2(O)NC(=O)c3cnccc32)c1,,,,broth dilution / radiometric,>2500 µM
CCN(CC)CCCC(C)NC(=O)c1ccc(-c2cc(C#N)cc(C3(C(C)C)C(C#N)=C(N)Oc4n[nH]c(C)c43)c2)s1,,NF54,,radiometric,2.51 µM
Cc1[nH]nc2c1C(c1cc(C#N)cc(N3CCOCC3)c1)(C1CCC1)C(C#N)=C(N)O2,,NF54,,radiometric,>2.4 µM
CC(C)C1(c2cc(C#N)cc(C#N)c2)C(C#N)=C(N)Oc2[nH]ncc21,,NF54,,radiometric,0.49 µM
CCN1C(=NCc2cccc(Cl)c2)N[C@@H](c2cccc(C(F)(F)F)c2)C(C(=O)OC)=C1C,,GB4,,SYBR Green / fluorescence,2.8 µM